Measured values from several laboratories, pooled; numbers as filed in NIAID ChemDB.

Common to all: tests in culture; organism: Mycobacterium tuberculosis

A number after MIC or MFC names an inhibition level or a share of isolates. An empty or dashed field is not shown. Rows are shuffled and stem from different studies. MIC bound comes from a single tested concentration. Inhibition is in % at the dose shown (toxicity tests: loss of growth or viability). ECn: concentration that inhibits the pathogen or its effect by n%.

SMILES | strain or isolate | changes | read by | read-out | dose | value
COc1ccccc1Sc1nc(Cl)nc2nc[nH]c12 | H37Ra |  |  | MIC |  | >12.8 µg/mL
C=CCNCCNC[C@]1(C)CCC[C@]2(C)c3ccc(C(C)C)cc3CC[C@@H]12 |  |  |  | MIC |  | 25 µM
CO/C(C)=C1/NC(=O)[C@H]([C@@H](C)O)NC(=O)c2csc(n2)-c2cc(O)c(-c3nc(C(=O)NNC(=O)c4cc(-c5ccco5)[nH]n4)cs3)nc2-c2csc(n2)[C@@H]2COC(=O)c3c4c5c(cccc5n3O)COC(=O)[C@@H](O[C@H]3C[C@](C)(O)[C@H](N(C)C)[C@H](C)O3)[C@@H](OC4)[C@H](NC(=O)c3csc1n3)c1nc(cs1)C(=O)N2 | Clinical isolate 565 | Multidrug-resistant | broth dilution | MIC |  | >100 µM
COc1ccc(CCNCCNCC23CC4CC(CC(C4)C2)C3)cc1 |  |  |  | MIC |  | 25 µM
NNC(=O)c1ccccc1 |  |  |  | MIC |  | 200 µg/mL
O=C(N/N=C/c1ccc(F)cc1)c1ccc(F)cc1 | H37Rv |  |  | inhibition | 6.25 µg/mL | 0%
CC[C@H]1OC(=O)[C@H](C)[C@@H](O[C@H]2C[C@@](C)(OC)[C@@H](O)[C@H](C)O2)[C@H](C)[C@@H](O[C@@H]2O[C@H](C)C[C@H](N(C)C)[C@H]2O)[C@](C)(OC)C[C@@H](C)C(=O)[C@H](C)[C@@H](O)[C@]1(C)O | H37Ra |  |  | Mean MIC |  | 5.5 µg/mL
NNC(=O)c1ccncc1 | Clinical isolate 7791 | Isoniazid-resistant | broth dilution | MIC |  | ≤10 µM
CCOC(=O)Nc1cc2[nH]c(=S)n3c(=S)[nH]c(n1)c23 | H37Rv |  |  | inhibition | 12.5 µg/mL | 0%
C[C@@H]1[C@@H](NCCNCCCCc2ccccc2)C[C@H]2C[C@@H]1C2(C)C |  |  |  | MIC |  | 50 µM
C=C/C(C)=C/[C@@]1(C)SC(=O)C(C)=C1O | PMH29:inhA |  |  | MIC |  | 5 µg/mL
Clc1cccc(Sc2nc(Cl)nc3nc[nH]c23)c1 | H37Rv |  |  | MIC90 |  | >6.25 µg/mL
C[C@H]1COc2c(N3CCN(C)CC3)c(F)cc3c(=O)c(C(=O)O)cn1c23 | CSU20 |  |  | MIC |  | ≤0.125 µg/mL
O=c1nc(SCc2cccc3ccccc23)c2[nH]cnc2[nH]1 | H37Rv |  |  | inhibition | 6.25 µg/mL | 43%
NCC[C@H](O)C(=O)N[C@@H]1C[C@H](N)[C@@H](O[C@H]2O[C@H](CN)[C@@H](O)[C@H](O)[C@H]2O)[C@H](O)[C@H]1O[C@H]1O[C@H](CO)[C@@H](O)[C@H](N)[C@H]1O | H37Ra |  |  | Mean MIC |  | 0.6 µg/mL
CCOC(=O)Nc1cc(N(C)C)c([N+](=O)[O-])c(N)n1 | H37Rv |  |  | EC50 |  | >12.5 µg/mL
CC1CN(c2c(F)cc3c(=O)c(C(=O)O)cn(C4CC4)c3c2F)CC(C)N1 | CSU18 |  |  | MIC |  | ≤0.125 µg/mL
COc1cccc(CSc2ccccn2)c1 | H37Rv |  |  | inhibition | 6.25 µg/mL | 0%
Clc1ccc(CCNCCNC2CCCCCCC2)c(Cl)c1 |  |  |  | MIC |  | 50 µM
NNC(=O)CCC(=O)NN |  |  |  | MIC |  | 10 µg/mL
CCOC(=O)Nc1cc(Cl)cc(NC(=O)OCC)n1 | H37Rv |  |  | EC50 |  | >12.5 µg/mL
O=C(N/N=C/c1ccc(O)cc1)c1ccc(F)cc1 | H37Rv |  |  | inhibition | 6.25 µg/mL | 9%
C[C@@H]1CN(c2c(F)c(N)c3c(=O)c(C(=O)O)cn(C4CC4)c3c2F)C[C@H](C)N1 | CSU11 |  |  | MIC |  | ≤0.125 µg/mL
Cc1ccc(CSc2ccccn2)cc1 | H37Rv |  |  | inhibition | 6.25 µg/mL | 0%
CO[C@H]1/C=C/O[C@@]2(C)Oc3c(C)c(O)c4c(O)c(c(/C=N/N5CCN(C)CC5)c(O)c4c3C2=O)NC(=O)/C(C)=C\C=C\[C@H](C)[C@H](O)[C@@H](C)[C@@H](O)[C@@H](C)[C@H](OC(C)=O)[C@@H]1C | Clinical isolate 1868 | Rifampicin- and isoniazid-resistant | broth dilution | MIC |  | ≤10 µM
C[C@@H]1CN(c2c(F)c(N)c3c(=O)c(C(=O)O)cn(C4CC4)c3c2F)C[C@H](C)N1 | 900145 |  |  | MIC |  | 0.2 µg/mL
CO/C(C)=C1/NC(=O)[C@H]([C@@H](C)O)NC(=O)c2csc(n2)-c2cc(O)c(-c3nc(C(=O)NC(C)c4nc(-c5ccccn5)ns4)cs3)nc2-c2csc(n2)[C@@H]2COC(=O)c3c4c5c(cccc5n3O)COC(=O)[C@@H](O[C@H]3C[C@](C)(O)[C@H](N(C)C)[C@H](C)O3)[C@@H](OC4)[C@H](NC(=O)c3csc1n3)c1nc(cs1)C(=O)N2 | Clinical isolate 565 | Multidrug-resistant | broth dilution | MIC |  | ≤10 µM
O=C(N/N=C/c1cccc(Cl)c1)c1ccc(F)cc1 | H37Rv |  |  | EC50 |  | <6.25 µg/mL
CCOC(=O)Nc1cc(N)c([N+](=O)[O-])c(Cl)n1 | H37Rv |  |  | EC50 |  | <12.5 µg/mL
CN1c2ccccc2CCC1CCc1ccc2c(c1)OCO2 | MT10 |  |  | MIC |  | >339 µg/mL
CCCCCCCCCCCNCCNC1CCC1 |  |  |  | MIC |  | 50 µM
CO[C@H]1/C=C/O[C@@]2(C)Oc3c(C)c(O)c4c(O)c(c5c(c4c3C2=O)NC2(CCN(CC(C)C)CC2)N=5)=NC(=O)/C(C)=C\C=C\[C@H](C)[C@H](O)[C@@H](C)[C@@H](O)[C@@H](C)[C@H](OC(C)=O)[C@@H]1C | H37Ra |  |  | Median MIC |  | ≤0.006 µg/mL
NNC(=O)c1ccncc1 | Clinical isolate BRF 27 |  | resazurin | MIC |  | 0.03 µg/mL
CCOC(=O)Nc1cc2[nH]c(=O)c(-c3ccccc3)nc2c(N)n1 | H37Rv |  |  | EC50 |  | >12.5 µg/mL
NNC(=O)CNc1cccc([N+](=O)[O-])c1 |  |  |  | MIC |  | 40 µg/mL
CO[C@H]1/C=C/O[C@@]2(C)Oc3c(C)c(O)c4c(O)c(c(/C=N/N5CCN(C)CC5)c(O)c4c3C2=O)NC(=O)/C(C)=C\C=C\[C@H](C)[C@H](O)[C@@H](C)[C@@H](O)[C@@H](C)[C@H](OC(C)=O)[C@@H]1C | TN794 |  |  | MIC |  | >32 µg/mL
NNC(=O)c1ccncc1 | H37Rv |  |  | Mean MIC |  | 0.044 µg/mL
NNC(=O)CC(=O)NN |  |  |  | MIC |  | 10 µg/mL
CCCCCCCCCCCNCCNC[C@@H]1CC[C@H]2C[C@@H]1C2(C)C |  |  |  | MIC |  | 25 µM
COC1OC(COC(=O)c2ccccc2)C(OC(=O)c2ccccc2)C1NC(C)=O | H37Rv |  | BACTEC | MIC bound |  | >12.5 µg/mL
COc1cccc(CSc2ncnc3nc[nH]c23)c1 | H37Rv |  |  | MIC90 |  | >6.25 µg/mL
COCC12CC(CC1=O)C1C2ON2c3ccccc3C(=O)C12c1ccccc1 | H37Rv |  | resazurin | inhibition | 6.25 µg/mL | 25%
CCCCSc1nc(Cl)nc2nc[nH]c12 | H37Rv |  |  | MIC90 |  | >6.25 µg/mL
CCOc1ccc(C(=O)N/N=C/c2ccc(Cl)cc2)cc1 |  |  |  | MIC |  | >200 µg/mL
CCOC(=O)Nc1cc(NCC(=O)c2ccc(Cl)cc2)c([N+](=O)[O-])c(N)n1 | H37Rv |  |  | EC50 |  | >12.5 µg/mL
COc1ccc(CCc2cc(OC)c3ccccc3n2)cc1OC | MT7 |  |  | MIC |  | 25 µg/mL
CC1(C)[C@@H]2CC[C@@]1(C)[C@@H](NCCNC1CCCCCCC1)C2 |  |  |  | MIC |  | 12.5 µM
O=C(O)c1cn(C2CC2)c2c(F)c(N3CCSCC3)c(F)cc2c1=O | CSU21 |  |  | MIC |  | 2 µg/mL
C=C(NC(=O)c1csc(-c2nc3c(cc2O)-c2nc(cs2)C(=O)N[C@@H]([C@@H](C)O)C(=O)N/C(=C(\C)OC)c2nc(cs2)C(=O)N[C@@H]2c4nc(cs4)C(=O)N[C@@H](COC(=O)c4c5c6c(cccc6n4O)COC(=O)[C@@H](O[C@H]4C[C@](C)(O)[C@H](N(C)C)[C@H](C)O4)[C@H]2OC5)c2nc-3cs2)n1)C(N)=O | Clinical isolate 15552 | Rifampicin- and isoniazid-resistant | broth dilution | MIC |  | ≤2.5 µM
O=C(N/N=C/c1ccc(Br)s1)c1ccc(F)cc1 | H37Rv |  |  | EC50 |  | <6.25 µg/mL
c1ccc(CSc2ccncc2)cc1 | H37Rv |  |  | MIC90 |  | >6.25 µg/mL

Again, the opening 7 rows:

SMILES | strain or isolate | changes | read by | read-out | dose | value
COc1ccccc1Sc1nc(Cl)nc2nc[nH]c12 | H37Ra |  |  | MIC |  | >12.8 µg/mL
C=CCNCCNC[C@]1(C)CCC[C@]2(C)c3ccc(C(C)C)cc3CC[C@@H]12 |  |  |  | MIC |  | 25 µM
CO/C(C)=C1/NC(=O)[C@H]([C@@H](C)O)NC(=O)c2csc(n2)-c2cc(O)c(-c3nc(C(=O)NNC(=O)c4cc(-c5ccco5)[nH]n4)cs3)nc2-c2csc(n2)[C@@H]2COC(=O)c3c4c5c(cccc5n3O)COC(=O)[C@@H](O[C@H]3C[C@](C)(O)[C@H](N(C)C)[C@H](C)O3)[C@@H](OC4)[C@H](NC(=O)c3csc1n3)c1nc(cs1)C(=O)N2 | Clinical isolate 565 | Multidrug-resistant | broth dilution | MIC |  | >100 µM
COc1ccc(CCNCCNCC23CC4CC(CC(C4)C2)C3)cc1 |  |  |  | MIC |  | 25 µM
NNC(=O)c1ccccc1 |  |  |  | MIC |  | 200 µg/mL
O=C(N/N=C/c1ccc(F)cc1)c1ccc(F)cc1 | H37Rv |  |  | inhibition | 6.25 µg/mL | 0%
CC[C@H]1OC(=O)[C@H](C)[C@@H](O[C@H]2C[C@@](C)(OC)[C@@H](O)[C@H](C)O2)[C@H](C)[C@@H](O[C@@H]2O[C@H](C)C[C@H](N(C)C)[C@H]2O)[C@](C)(OC)C[C@@H](C)C(=O)[C@H](C)[C@@H](O)[C@]1(C)O | H37Ra |  |  | Mean MIC |  | 5.5 µg/mL